Results of unrelated studies side by side (data: NIAID ChemDB).

All rows: tests in culture; organism: Mycobacterium tuberculosis

MIC50, MIC90 and the like: level of inhibition, or share of isolates inhibited. MIC bound: limit read from a one-dose screen. ECn is the concentration giving n% inhibition of infection, replication or growth. Inhibition is in % at the dose shown (toxicity tests: loss of growth or viability). Rows are shuffled and stem from different studies. Blank or dashed fields: not listed here.

| structure | tested at | method | endpoint | strain | result |
|---|---|---|---|---|---|
| CSC(=S)NN=C1CCCCC1 |  |  | MIC | RMP-R | 12.8 µg/mL |
| CCCCCCc1ccc(NC(=O)c2cc(Br)cc(Br)c2O)cc1 |  |  | MIC | My 331/88 | 16 µM |
| O=C(NCc1ccc([N+](=O)[O-])cc1)c1ncccc1S |  |  | MIC | CNCTC MY 331/8 | 16 µM |
| NSC(=S)NCc1ccco1 |  | BACTEC | MIC bound | H37Rv | ≤128 µg/mL |
| COc1ccc2nc(-c3ccccc3)cc(Nc3cccc(O)c3)c2c1 |  |  | MIC | Strain 2 (MDR) | >1 µg/mL |
| NC(=O)C1CCNCC1 |  |  | MIC | BCG | 1000 µg/mL |
| O=C1C(Cl)=C(NCCCN(CCO)CCO)C(=O)c2ccccc21 | 12.5 µg/mL | BACTEC | inhibition | H37Rv | -2% |
| O=C(NCc1ccc(Cl)cc1)c1ncccc1O |  |  | MIC | CNCTC MY 331/8 | 125 µM |
| CCCCCCCCCCCC(=O)NN |  |  | MIC | BCG | 3 µg/mL |
| Cc1ccc(-c2ccc(Cl)cc2)n1C1CCCCC1 |  |  | MIC | H37Rv | <12.5 µg/mL |
| O=C(Nc1ccc(F)cc1)c1ncccc1O |  |  | MIC | CNCTC MY 331/8 | 128 µM |
| CCOC(=O)C(CC(C)C)NC(=O)c1cc(SC#N)c(C)c2c1Nc1c(c(C)c3oc(=O)c(C)nc3c1C(=O)NC(CC(C)C)C(=O)OCC)O2 |  | BACTEC | MIC bound | H37Rv | >12.5 µg/mL |
| Cc1c(CN2CCN(C)CC2)cc(-c2ccc(Cl)cc2)n1C1CCCCC1 | 12.5 µg/mL |  | inhibition | H37Rv | 96% |
| C#CCSc1nnc(-c2ccc([N+](=O)[O-])o2)s1 |  |  | MIC | H37Rv | 1.56 µg/mL |
| O=C(NNC(=O)C1CCNCC1)C1CCNCC1 |  |  | MIC | BCG | 8 µg/mL |
| COc1ccc(NC(=O)c2ccccc2O)cc1 |  |  | MIC | CNCTC MY 331/8 | 62.5 µM |
| O=C1NC(=S)N/C1=C/c1cccc(OCc2ccc(Cl)cc2Cl)c1 | 6.25 µg/mL |  | inhibition | H37Rv | 84% |
| COc1ccccc1NC(=O)C(/C=N/C(=S)NCCNc1ccc(OC)c(OC)c1)=C(/C)O |  | resazurin | MIC bound | H37Rv | >6.25 µg/mL |
| Cc1ccc(-c2ccc(Cl)cc2)[nH]1 |  |  | MIC | H37Rv | <12.5 µg/mL |
| CCCCCCCCCCCCC1C(=O)NCCNCCCNCCNC1=O | 6.25 µg/mL | resazurin | inhibition | H37Rv | 10% |
| CCCCCCCCc1ccc(NC(=O)c2ccc(Cl)cc2O)cc1 |  |  | MIC | My 331/88 | 16 µM |
| C/C(=C\c1ccccc1)C1NC(=S)NC1=O |  |  | EC50 | H37Rv | <6.25 µg/mL |
| CC1NCC(C(=O)NN)C(O)N1 |  |  | MIC | BCG | 400 µg/mL |
| Cn1c([N+](=O)[O-])cnc1-c1nnc(SCc2ccccc2[N+](=O)[O-])s1 |  |  | MIC | H37Rv | >6.25 µg/mL |
| COc1ccc(N2COc3ccccc3C2)cc1 |  | absorbance | MIC |  | 1.65 µg/mL |
| CO[C@H]1/C=C/O[C@@]2(C)Oc3c(C)c(O)c4c(O)c(c5c(c4c3C2=O)NC2(CCN(CC(C)C)CC2)N=5)=NC(=O)/C(C)=C\C=C\[C@H](C)[C@H](O)[C@@H](C)[C@@H](O)[C@@H](C)[C@H](OC(C)=O)[C@@H]1C |  |  | MIC | 1 isolates (Leu533Pro) | 0.5 µg/mL |
| COc1cccc2c(Nc3ccc(S(=O)(=O)Nc4ccnn4-c4ccccc4)cc3)ccnc12 |  |  | MIC | Strain 2 (MDR) | 8 µg/mL |
| CCCc1ccc(NC(=O)c2cc(Cl)ccc2O)cc1 |  |  | MIC | My 331/88 | 2 µM |
| NNC(=O)c1ccncc1 |  |  | MBC | H37Rv | 0.05 µg/mL |
| Cc1cccc(/C=C2/NC(=S)NC2=O)c1 |  |  | EC50 | H37Rv | <6.25 µg/mL |
| O=[N+]([O-])c1cccc(CSc2nnc(-c3ccc([N+](=O)[O-])o3)s2)c1 |  |  | MIC | H37Rv | 3.13 µg/mL |
| CCCCCCn1c(C)c(CN2CCN(C)CC2)c(CN2CCN(C)CC2)c1-c1ccc(Cl)cc1 |  |  | MIC | H37Rv | <12.5 µg/mL |
| NNC(=O)C(=O)N=Cc1ccc([N+](=O)[O-])o1 |  |  | MIC | INH-r | 1.6 µg/mL |
| O=C(Nc1ccc(Cl)cc1)c1ncccc1S |  |  | MIC | CNCTC MY 331/8 | 32 µM |
| O=[N+]([O-])c1cccc(N2COc3ccccc3C2)c1 |  | absorbance | MIC |  | 5.5 µg/mL |
| CO/N=C/c1c2c(O)c3c(O)c(C)c4c(c3c1O)C(=O)[C@@](C)(O/C=C/[C@H](OC)[C@@H](C)[C@@H](O)[C@H](C)[C@H](O)[C@H](C)[C@@H](O)[C@@H](C)/C=C/C=C(/C)C(=O)N2)O4 |  |  | MIC | H37Rv | 0.2 µg/mL |
| CC(=O)OC[C@H]1O[C@@H](n2ccc(-n3cncn3)nc2=O)C[C@@H]1N=[N+]=[N-] | 12.5 µg/mL | BACTEC | inhibition | H37Rv | 3% |
| CC1(C)C=Cc2cc3ccc(=O)oc3cc2O1 |  | agar / visual reading | MIC |  | 220 µg/mL |
| CCC12C=CCN3CC[C@@]4(c5ccc(OC)cc5N(C)[C@H]4[C@@](O)(C(=O)OC)[C@@H]1OC(C)=O)[C@@H]32 | 12.5 µg/mL | BACTEC | inhibition | H37Rv | 6% |
| Cc1c(CN2CCN(C)CC2)c(CN2CCN(C)CC2)c(-c2ccc(Cl)cc2)n1C1CCCCC1 |  |  | MIC | H37Rv | <12.5 µg/mL |
| CC1COc2c(N3CCN(C)CC3)c(F)cc3c(=O)c(C(=O)O)cn1c23 |  |  | MIC90 | 188 strains | 1 µg/mL |
| CC(=O)NNC(=O)CN(CC(=O)NNC(C)=O)N=O |  | BACTEC | MIC bound | H37Rv | >12.5 µg/mL |
| CC(C)(C)OC(=O)N1CCCC[C@H]1[C@@H](O)c1cc(C(F)(F)F)nc2c(C(F)(F)F)cccc12 |  |  | MIC |  | 61 µM |
| Cc1ccc(C)[nH]1 |  |  | MIC | 103471 | 8 µg/mL |
| COc1nc2ccc(Br)cc2cc1[C@@H](c1ccccc1)[C@@](O)(CCN(C)C)c1cccc2ccccc12 |  | resazurin | MIC90 | clinical isolate MAL020151 | 0.03125 µg/mL |
| CCN(CC)c1ccc2nc3c4ccccc4c(=N)cc-3oc2c1 |  |  | MIC | INH-r | 6.3 µg/mL |
| COc1ccc(-c2cc(C(F)(F)F)nc3c(C(F)(F)F)cccc23)cc1 |  |  | MIC |  | >128 µM |
| CSC(=S)NNC(C)c1nccc2ccccc12 |  |  | MIC | TAC-R | 3.2 µg/mL |
| CCOC(=O)CCCOc1ccc(/C=C2/NC(=S)NC2=O)cc1 | 6.25 µg/mL |  | inhibition | H37Rv | 77% |
| CCOC(=O)c1cn(-c2cc(C)ccn2)nn1 | 6.25 µg/mL |  | inhibition | H37Rv | 98% |
| COC(=O)c1ccnc(-c2cc(C(=O)OC)ccn2)c1 | 6.25 µg/mL | resazurin | inhibition | H37Rv | 4% |
| CCCOC(=O)c1cn(-c2cc(C)ccn2)nn1 | 6.25 µg/mL |  | inhibition | H37Rv | 70% |
| CO[C@H]1/C=C/O[C@@]2(C)Oc3c(C)c(O)c4c(O)c(cc(N=NC(=N)N)c4c3C2=O)NC(=O)/C(C)=C\C=C\[C@H](C)[C@H](O)[C@@H](C)[C@@H](O)[C@@H](C)[C@H](OC(C)=O)[C@@H]1C |  |  | MIC | H37Rv | 0.001 µg/mL |
| CCCCCCn1c(C)ccc1C | 12.5 µg/mL |  | inhibition | H37Rv | 97% |
| COc1ccc(/C=C2/NC(=S)NC2=O)c(OC)c1 |  |  | EC50 | H37Rv | <6.25 µg/mL |
| CCCCCCCCc1ccc(NC(=O)c2cc(Cl)ccc2O)cc1 |  |  | MIC | My 331/88 | 2 µM |
| COC(=O)c1nc(Cl)nc(Cl)c1N | 12.5 µg/mL | BACTEC | inhibition | H37Rv | 8% |
| C=CCN1CCCC[C@H]1[C@@H](O)c1cc(C(F)(F)F)nc2c(C(F)(F)F)cccc12 |  |  | MIC |  | 25 µM |
| Nc1cccc(O)c1 |  |  | MIC | Strain 1 (MDR) | 0.5 µg/mL |
| CCCCCOC(=O)c1cn(-c2ccc(-c3ccccc3)nn2)nn1 | 6.25 µg/mL |  | inhibition | H37Rv | 99% |
| CO[C@H]1/C=C/O[C@@]2(C)Oc3c(C)c(O)c4c(O)c(cc(N=NC(=N)N)c4c3C2=O)NC(=O)/C(C)=C\C=C\[C@H](C)[C@H](O)[C@@H](C)[C@@H](O)[C@@H](C)[C@H](O)[C@@H]1C |  |  | MIC | H37Rv | 0.01 µg/mL |
| COC(=O)[C@H]1[C@H]2C[C@H]3c4[nH]c5ccccc5c4CCN3C[C@@H]2CC[C@@H]1O |  | BACTEC | MIC bound | H37Rv | >12.5 µg/mL |
| C=CCSc1nnc(-c2ncc([N+](=O)[O-])n2C)s1 | 6.25 µg/mL |  | inhibition | H37Rv | 37% |
| CO[C@H]1/C=C/O[C@@]2(C)Oc3c(C)c(O)c4c(O)c(c(/C=N/N5CCN(C)CC5)c(O)c4c3C2=O)NC(=O)/C(C)=C\C=C\[C@H](C)[C@H](O)[C@@H](C)[C@@H](O)[C@@H](C)[C@H](OC(C)=O)[C@@H]1C |  | absorbance | MIC |  | 0.9 µg/mL |
| NNC(=O)CN(CC(=O)NN)N=O |  | BACTEC | MIC bound | H37Rv | >12.5 µg/mL |
| NC(=S)NNC(=O)c1ccncc1 |  |  | MIC | Strain 2 (MDR) | 1 µg/mL |
| Cc1ccc(N2COc3ccccc3C2)cc1 |  | absorbance | MIC |  | 5.56 µg/mL |
| CCCCCCCc1ccc(NC(=O)c2ccc(Cl)cc2O)cc1 |  |  | MIC | My 331/88 | 8 µM |
| CO[C@H]1/C=C/O[C@@]2(C)Oc3c(C)c(O)c4c(O)c(c(CN5CCCC5)c(O)c4c3C2=O)NC(=O)/C(C)=C\C=C\[C@H](C)[C@H](O)[C@@H](C)[C@@H](O)[C@@H](C)[C@H](O)[C@@H]1C |  |  | MIC | H37Rv | 0.1 µg/mL |
| CN1CCN(/N=C/c2cc(C(F)(F)F)nc3c(C(F)(F)F)cccc23)CC1 |  |  | MIC |  | 9 µM |
| CCN(CC)C(=O)COc1cc2c(O)c3c(O)c(C)c4c(c13)C(=O)[C@@](C)(O/C=C/[C@H](OC)[C@@H](C)[C@@H](O)[C@H](C)[C@H](O)[C@H](C)[C@@H](O)[C@@H](C)/C=C/C=C(/C)C(=O)N2)O4 |  |  | MIC | H37Rv | 0.5 µg/mL |
| NC[C@@H]1O[C@H](O[C@H]2[C@@H](O)[C@H](O[C@@H]3[C@@H](O)[C@H](N)C[C@H](N)[C@H]3O[C@H]3O[C@H](CO)[C@@H](O)[C@H](O)[C@H]3N)O[C@@H]2CO)[C@H](N)[C@@H](O)[C@@H]1O |  |  | MIC | MTB9 (RIF-R) | 0.75 µg/mL |
| O=C(O)CN1CCCC[C@H]1[C@@H](O)c1cc(C(F)(F)F)nc2c(C(F)(F)F)cccc12 |  |  | MIC |  | >128 µM |
| O=C(Nc1ccc(Cl)c(Cl)c1)c1ccccc1O |  |  | MIC | CNCTC MY 331/8 | 8 µM |
| O=C(NNC(=S)Nc1cccc(Cl)c1)c1ccncc1 |  | resazurin | MIC | H37Rv | 0.78 µg/mL |
| O=C(NCc1cccc(Cl)c1)c1ncccc1S |  |  | MIC | CNCTC MY 331/8 | 16 µM |
| CCCCCCCCc1ccc(NC(=O)c2cc(Br)ccc2O)cc1 |  |  | MIC | My 331/88 | 4 µM |
| CC1(C)C=Cc2cc3cc(O)c(=O)oc3cc2O1 |  | agar / visual reading | MIC |  | 16 µg/mL |
| Cc1c(CN2CCOCC2)cc(-c2ccc(Cl)cc2)n1Cc1ccccc1 |  |  | MIC | H37Rv | <12.5 µg/mL |
| CC(=O)Oc1c2c(c(OC(C)=O)c3c1n(C(C)=O)c1ccccc1n3C(C)=O)n(C(C)=O)c1ccccc1n2C(C)=O |  | BACTEC | MIC bound | H37Rv | >12.5 µg/mL |
| CCCOC(=O)c1cn(-c2cccnn2)nn1 | 6.25 µg/mL |  | inhibition | H37Rv | 13% |
| COC1CC(O[C@H]2CC[C@@]3(C)[C@H](CC[C@@]45CC[C@H](C6=CC(=O)OC6)[C@@](C)(CC[C@@H]43)C5=O)C2)OC(C)C1O | 12.5 µg/mL | BACTEC | inhibition | H37Rv | 14% |
| CCOC(=O)c1cn(-c2ccccn2)nn1 | 6.25 µg/mL |  | inhibition | H37Rv | 74% |
| O=C1/C(=C/c2ccc(Cl)cc2)CSC/C1=C/c1ccc(Cl)cc1 |  | BACTEC | MIC bound | H37Rv | >12.5 µg/mL |
| CO[C@H]1/C=C/O[C@@]2(C)Oc3c(C)c(O)c4c(O)c(c(/C=N/N5CCN(C)CC5)c(O)c4c3C2=O)NC(=O)/C(C)=C\C=C\[C@H](C)[C@H](O)[C@@H](C)[C@@H](O)[C@@H](C)[C@H](OC(C)=O)[C@@H]1C |  |  | MIC | H37Rv | 0.5 µg/mL |
| NNC(=O)c1ccncc1 |  |  | MIC | MTB17 (INH RIF-R) | >4 µg/mL |

A second listing of 9 rows from above:

structure | tested at | method | endpoint | strain | result
CO[C@H]1/C=C/O[C@@]2(C)Oc3c(C)c(O)c4c(O)c(cc(N=NC(=N)N)c4c3C2=O)NC(=O)/C(C)=C\C=C\[C@H](C)[C@H](O)[C@@H](C)[C@@H](O)[C@@H](C)[C@H](O)[C@@H]1C |  |  | MIC | H37Rv | 0.01 µg/mL
CCCCCCCCc1ccc(NC(=O)c2cc(Br)ccc2O)cc1 |  |  | MIC | My 331/88 | 4 µM
CC1COc2c(N3CCN(C)CC3)c(F)cc3c(=O)c(C(=O)O)cn1c23 |  |  | MIC90 | 188 strains | 1 µg/mL
NC(=S)NNC(=O)c1ccncc1 |  |  | MIC | Strain 2 (MDR) | 1 µg/mL
CCCCCCc1ccc(NC(=O)c2cc(Br)cc(Br)c2O)cc1 |  |  | MIC | My 331/88 | 16 µM
NNC(=O)c1ccncc1 |  |  | MIC | MTB17 (INH RIF-R) | >4 µg/mL
CCOC(=O)c1cn(-c2ccccn2)nn1 | 6.25 µg/mL |  | inhibition | H37Rv | 74%
CSC(=S)NNC(C)c1nccc2ccccc12 |  |  | MIC | TAC-R | 3.2 µg/mL
O=C1NC(=S)N/C1=C/c1cccc(OCc2ccc(Cl)cc2Cl)c1 | 6.25 µg/mL |  | inhibition | H37Rv | 84%